{
  "source": "patent US10851401B2",
  "about": "“Broth microdilution method for evaluating and determining minimal inhibitory concentration of antibacterial polypeptides” (priority 2016, dated 2020)",
  "molecules": {"B1": {"name": "CF-301: bacteriophage lysin polypeptide derived from a Streptococcus suis prophage, amino acid sequence of FIG. 1 / SEQ ID NO: 1; 26 kDa bacteriolytic enzyme (protein, listed as Streptococcus suis)", "chain": "MTTVNEALNNVRAQVGSGVSVGNGECYALASWYERMISPDATVGLGAGVGWVSGAIGDTISAKNIGSSYNWQANGWTVSTSGPFKAGQIVTLGATPGNPYGHVVIVEAVDGDRLTILEQNYGGKRYPVRNYYSAASYRQQVVHYITPPGTVAQSAPNLAGSRSYRETGTMTVTVDALNVRRAPNTSGEIVAVYKRGESFDYDTVIIDVNGYVWVSYIGGSGKRNYVATGATKDGKRFGNAWGTFK"}},
  "key": {"[1]": {"experiment": "MIC assays under different conditions (FIG. 7)", "conditions": "MHBII, 25% horse serum, 0.5 mM DTT"}, "S. aureus ATCC 700699": {"system": "S. aureus ATCC 700699", "experiment": "BMD MIC assay of a single strain in CA-MHB, human blood matrices and supplemented broth"}, "[2]": {"conditions": "S. aureus ATCC 70069, CA-MHB supplemented with 0.25% horse serum and 0.5 mM DTT (FIG. 8)"}},
  "data": [
    {"molecule": "B1", "values": [
      {"measurement": "MIC", "setting": "[1]", "result": 0.5, "unit": "µg/mL"},
      {"measurement": "MIC", "setting": "S. aureus ATCC 700699; CA-MHB with 25% horse serum and 0.5 mM DTT (FIG. 8)", "result": 1, "unit": "µg/mL"},
      {"measurement": "MIC", "setting": "S. aureus ATCC 700699; [2]", "result": 1, "unit": "µg/mL"},
      {"measurement": "trailing or Eagle effect", "setting": "S. aureus ATCC 700699; [2]", "result": "no trailing or Eagle effect"},
      {"measurement": "trailing and Eagle effects observed up to", "setting": "S. aureus ATCC 700699; standard conditions, CA-MHB / MHBII", "result": "up to 512 μg/ml"}
    ]}
  ]
}
